Data published in patent US7015244B1 (priority 1998, dated 2006).

Experiments:
[1] = test system: human epidermoid cells, virally infected with HSV-2; details: for Trichothecene in Vitro Concentration, Toxic Lo / Trichothecene in Vitro Concentration, Cytotoxic Max: dose guideline; for Trichothecene in Vitro Concentration, Cytotoxic Min: dose guideline from viral protein synthesis inhibiting model; for Trichothecene in Vitro Concentration, Cytotoxic Max: highest concentration without reduction in cell viability
[2] = test system: human epidermoid cells, virally infected with HSV-2; details: cited from earlier work; for inhibition of hyperactive protein synthesis: by ~5 ng/ml, HSV-2 infected human epidermoid cells

Substance | Trichothecene in Vitro Concentration, Toxic Lo [1] | Trichothecene in Vitro Concentration, Cytotoxic Min [1] | Trichothecene in Vitro Concentration, Cytotoxic Max [1] | inhibition of hyperactive protein synthesis [2] | Trichothecene in Vitro Concentration, Inhibitory 50% [2] | Trichothecene in Vitro Concentration, Inhibitory 80% [2] | Trichothecene in Vitro Concentration, Inhibitory 90% [2] | Trichothecene in Vitro Concentration, Inhibitory 99% [2]
Roridin A | 11 ng/mL | 6 ng/mL | 10 ng/mL | 100% | 1.4 ng/mL | 2.0 ng/mL | 3.3 ng/mL | 5.0 ng/mL
Satratoxin G | 11 ng/mL | 6 ng/mL | 10 ng/mL | 100% | 1.5 ng/mL | 2.4 ng/mL | 3.9 ng/mL | 5.0 ng/mL
